The target of assay [1] is AE.A244 gp120 (HIV-1).
The target of assay [2] is T1, gp70 B.HXB2/BALV1V2 (murine leukemia virus; HIV-1).
T1 chain: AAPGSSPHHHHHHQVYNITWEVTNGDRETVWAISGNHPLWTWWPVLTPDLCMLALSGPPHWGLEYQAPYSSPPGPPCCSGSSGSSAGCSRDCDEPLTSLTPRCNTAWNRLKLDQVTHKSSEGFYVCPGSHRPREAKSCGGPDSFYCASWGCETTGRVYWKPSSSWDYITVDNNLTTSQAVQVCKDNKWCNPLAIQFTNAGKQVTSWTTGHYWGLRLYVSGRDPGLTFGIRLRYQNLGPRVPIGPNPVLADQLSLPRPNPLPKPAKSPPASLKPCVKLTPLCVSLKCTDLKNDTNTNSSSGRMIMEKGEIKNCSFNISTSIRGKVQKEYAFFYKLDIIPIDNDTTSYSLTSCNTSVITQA
Description: ELISA.

Assay [3] concerns the target J08 A.92RW020V1V2 (HIV-1). Description: ELISA. On the technique in general: In an ELISA, binding on a coated surface is turned into a signal by an enzyme label.
Assay [4] addresses T2, J08 B.HXB2/BALV1V2 (HIV-1).
T2 construct: also called J08 B.HXB/BAL V1V2
T2 chain: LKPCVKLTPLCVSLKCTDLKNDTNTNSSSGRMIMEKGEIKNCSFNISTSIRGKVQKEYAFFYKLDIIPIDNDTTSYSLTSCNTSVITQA
As to the kind of experiment: ELISA.

For assay [5], the target named is J08 C.ZM109.V1V2 (HIV-1). Description: ELISA.
The target in assay [6] is T3, G.con gp140CF.
T3 chain: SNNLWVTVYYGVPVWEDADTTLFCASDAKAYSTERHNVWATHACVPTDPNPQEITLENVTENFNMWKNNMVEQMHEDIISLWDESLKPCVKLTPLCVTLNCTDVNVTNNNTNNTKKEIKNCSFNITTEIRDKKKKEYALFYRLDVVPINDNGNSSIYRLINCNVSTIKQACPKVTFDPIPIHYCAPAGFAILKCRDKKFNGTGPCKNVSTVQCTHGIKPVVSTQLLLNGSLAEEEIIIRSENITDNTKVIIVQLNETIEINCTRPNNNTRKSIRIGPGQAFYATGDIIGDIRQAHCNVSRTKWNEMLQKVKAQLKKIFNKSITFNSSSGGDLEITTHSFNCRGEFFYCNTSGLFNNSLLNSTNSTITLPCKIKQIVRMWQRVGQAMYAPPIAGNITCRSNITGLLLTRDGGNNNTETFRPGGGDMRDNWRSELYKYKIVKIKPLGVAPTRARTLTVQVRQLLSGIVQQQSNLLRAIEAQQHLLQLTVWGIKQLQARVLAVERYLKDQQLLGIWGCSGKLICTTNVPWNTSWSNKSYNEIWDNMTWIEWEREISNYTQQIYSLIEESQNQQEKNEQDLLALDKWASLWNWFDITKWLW
As to the kind of experiment: ELISA, OD405 at 10 ug/ml.

Assay [7] addresses T4, C.CAP206 gp140CF.12 (HIV-1).
T4 chain: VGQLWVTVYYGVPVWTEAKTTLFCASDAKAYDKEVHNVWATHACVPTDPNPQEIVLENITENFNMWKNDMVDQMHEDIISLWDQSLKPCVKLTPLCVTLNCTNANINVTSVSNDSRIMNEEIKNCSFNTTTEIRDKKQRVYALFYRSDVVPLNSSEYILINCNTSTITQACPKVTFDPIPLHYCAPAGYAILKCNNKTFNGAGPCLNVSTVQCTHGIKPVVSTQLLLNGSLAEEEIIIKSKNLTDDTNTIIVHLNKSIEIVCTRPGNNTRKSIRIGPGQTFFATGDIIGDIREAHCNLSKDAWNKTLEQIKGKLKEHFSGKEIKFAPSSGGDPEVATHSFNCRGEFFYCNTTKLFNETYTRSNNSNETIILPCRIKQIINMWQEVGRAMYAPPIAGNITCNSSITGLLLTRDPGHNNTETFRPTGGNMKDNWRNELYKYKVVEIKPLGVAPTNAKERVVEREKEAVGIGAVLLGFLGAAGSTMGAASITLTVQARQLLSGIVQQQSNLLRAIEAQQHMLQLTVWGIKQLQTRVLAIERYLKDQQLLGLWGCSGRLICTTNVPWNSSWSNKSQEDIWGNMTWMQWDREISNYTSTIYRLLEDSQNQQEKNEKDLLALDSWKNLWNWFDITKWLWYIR
Description: ELISA.

In assay [8] the target is T5, B.con gp140CF.
T5 construct: also called B.con.env03 gp140CF
As to the kind of experiment: ELISA, OD405.

In assay [9] the target is T6, B. 681-7 gp140C.
T6 chain: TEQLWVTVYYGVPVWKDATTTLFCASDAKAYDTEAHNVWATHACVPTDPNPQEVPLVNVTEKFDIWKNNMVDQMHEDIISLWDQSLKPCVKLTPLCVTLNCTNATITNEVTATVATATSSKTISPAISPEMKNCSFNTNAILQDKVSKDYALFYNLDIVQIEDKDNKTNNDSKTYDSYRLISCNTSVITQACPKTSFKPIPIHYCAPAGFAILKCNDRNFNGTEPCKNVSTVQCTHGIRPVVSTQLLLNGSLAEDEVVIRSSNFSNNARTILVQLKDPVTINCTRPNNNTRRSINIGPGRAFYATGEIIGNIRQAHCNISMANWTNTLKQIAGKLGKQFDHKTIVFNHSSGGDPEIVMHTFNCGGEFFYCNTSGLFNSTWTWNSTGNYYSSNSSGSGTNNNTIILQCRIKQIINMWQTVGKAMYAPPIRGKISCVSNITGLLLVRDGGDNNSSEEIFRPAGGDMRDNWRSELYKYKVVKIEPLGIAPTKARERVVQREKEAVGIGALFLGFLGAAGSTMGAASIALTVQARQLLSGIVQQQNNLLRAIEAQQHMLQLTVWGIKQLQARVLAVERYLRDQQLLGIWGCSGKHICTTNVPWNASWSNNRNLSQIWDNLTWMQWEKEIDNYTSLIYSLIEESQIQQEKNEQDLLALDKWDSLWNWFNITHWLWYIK
Description: ELISA, OD405.

In assay [10] the target is T7, B.HXB/BAL gp140CFI (HIV-1, UniProt P04578 33-680).
T7 construct: also called B.HxB/Ba gp140 CFI
As to the kind of experiment: ELISA, OD405.

The target of assay [11] is T8, G.con gp140CF.
T8 construct: also called G.con.env03 gp140CF
T8 chain: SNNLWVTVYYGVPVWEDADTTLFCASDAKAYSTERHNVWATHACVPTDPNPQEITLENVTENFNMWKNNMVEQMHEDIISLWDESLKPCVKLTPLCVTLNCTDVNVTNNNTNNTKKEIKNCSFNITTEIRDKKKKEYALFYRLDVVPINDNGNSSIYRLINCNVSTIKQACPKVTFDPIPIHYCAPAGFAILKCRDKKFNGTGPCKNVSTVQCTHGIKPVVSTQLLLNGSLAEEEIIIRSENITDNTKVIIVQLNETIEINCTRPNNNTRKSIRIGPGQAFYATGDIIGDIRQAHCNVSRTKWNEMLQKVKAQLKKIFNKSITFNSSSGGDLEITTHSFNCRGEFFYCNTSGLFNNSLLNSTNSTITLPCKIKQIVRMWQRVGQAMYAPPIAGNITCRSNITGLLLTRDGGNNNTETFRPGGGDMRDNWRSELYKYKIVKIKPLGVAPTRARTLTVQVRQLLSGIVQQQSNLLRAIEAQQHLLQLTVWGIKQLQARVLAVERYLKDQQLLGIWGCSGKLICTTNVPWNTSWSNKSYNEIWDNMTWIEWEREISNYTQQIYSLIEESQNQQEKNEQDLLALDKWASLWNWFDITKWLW
As to the kind of experiment: ELISA, OD405.

Where only a bound is given, the exact number is not on record here.

A word on the IC50: it is the concentration at which inhibition is half-maximal. A higher IC50 goes with weaker potency in that assay. A word on the EC50: it is the concentration needed to bring the measured effect to its halfway point. Lower therefore signals higher potency in that assay.

B1: CH58 (antibody, V domains shown)
VH: EVQLVQSGAEVKKPGESLKISCKGSGYRFTSYWIVWVRQMPGKGLEWMGIIYPGDFDTKYSPSFQGQVTISADKSISTAYLQWSSLKASDTAMYYCARLGGRYYHDSSGYYYLDYWGQGTLVTVSS
VL: NFMLTQPHSVSESPGKTVTISCTRSSGSVASDYVQWYQQRPGSAPTTVVYEDNQRPSGVPDRFSGSIDSSSNSASLTISGLKTEDEADYYCQSYDNSSWVFGGGTKLTVL
Regarding B1, the IC50 in [1] is below 10 nM. Further, the EC50 in assay [2] was above 667 nM; in assay [3] it was 0.22 nM; in assay [4], above 667 nM; in assay [7] it was 1 nM. The binding result in assay [5] was “no binding (tested: 667 nM)”; in [6] it was “no binding (tested: 10 ug/ml)”; in assay [8], “no binding (tested: 10 ug/ml)”; in [9], “no binding (tested: 10 ug/ml)”; in assay [10] it was “no binding (tested: 10 ug/ml)”; in [11] it was “no binding (tested: 10 ug/ml)”.

Values taken from patent US9988424 (DUKE UNIVERSITY, dated 2018).
